This is one part of the list. Env chains of viruses from a treatment-interruption trial, translated from the printed DNA. IC50 / IC80 of two broadly neutralizing antibodies; lower = more sensitive virus; >50 µg/ml means not reached and <0.001 µg/ml is below the lowest dose. No active / inactive call.
B1: HIV-1 Env, reservoir clone (protein)
chain: MRVKGIKKNYHILWKGGIWKWGIMLLGMLMICSASAQLWVTVYYGVPVWKEAITTLFCASDAKAYDTEVHNVWATHACVPTDPNPQEVSLTNVTENFNMWKNNMVEQMHEDIISLWDQSLKPCVKLTPLCVTLNCTEYKGNNATNNATKNDSSIEEVMKGEIQQCSFNVTTNIKDKMQKEYALFYKSDLVPINDETRNNSTNNSTNYRLISCNTSVITQACPKVTFEPIPIHYCAPAGYAILKCNDKKFNGTGPCKNVSTVQCTHGIRPVVSTQLLLNGSLAEEEVVIRSENLTNNAKTIIVQLTKSVAINCTRPNNNTRKSIPIGPGRAFYTTGDIIGNIRQAHCNISGKDWNDTLKQIATKLREQFNKTTIAFNQSSGGDPEIVMHSFNCGGEFFYCNTAKLFNSNWNSTKSNSTEGNDTITIPCKIKQVINLWQEVGKAMYAPPIRGQIKCSSNITGLLLTRDGGNNTNETMEIFRPEGGDMRDNWRSELYKYKVVRIEPLGIAPTKAKRRVVQREKRAVGFGALFLGFLGAAGSTMGAASMTLTVQARQLLSGIVQQQNNLLRAIEAQQHLLQLTVWGIKQLQARVLAVERYLQDRQLLGIWGCSGKLICTTAVPWNNSWSNKSVDYIWNNMTWMQWEKEIENYTGTIYRLLEDSQNQQEKNEHELLELDKWASLWNWFDITKWLWYIKIFIMIVGGLIGLRIIFAVLSILNRVRQGYSPLSFQIRPPAQRGPDRPEGIEEEGGERDRDTSGQLARGFLAIFWVDLRSLCLFSYHHLRDLLLIAARIVELLGRRGWEALNYWWNLLQYWIQELKNSAVSLLNATAIAVAEGTDRIIEIIQRAGRAIIHIPRRIRQGLERLLL
B2: HIV-1 Env, reservoir clone (protein)
chain: MKAKETRKNYQHLWRWGIMLLGILMICSAASQLWVTVYYGVPVWKEATTTLFCASDAKAYDTEVHNVWATHACVPTDPNPQEVVLGNVTEDFNMWKNNMVEQMHEDIISLWDQSLKPCVKITPLCVTLNCTEYSNATSTTWGQMEKGEIKNCSFNVTTNIKNKMQKEYALFYKLDVVPIGDNSTNYRLIKCNTSAITQACPKVSFQPIPIHYCAPAGFAILKCNNKTFNGLGPCTNVSTVQCTHGIRPVVSTQLLLNGSLAEEEIVIRSENFSDNAKNIIVHLNASIEINCTRPNNNTRKSITIGPGRAFYATGDVIGDIRQAHCNISGEKWNEALKQIAIKLREQFGHNKTIVFNQSSGGDPEIVAHSVNCGGEFFYCNSTKLFNSTWHSNGTQNNTTESNETITLPCKIKQIINLWQEVGKAIYAPPISGPIRCSSNITGLLLTRDGGHTSETNKETFRPGGGDMRDNWRSELYKYKVVKIEPLGVAPTKAKRRVVQRERRAVGTFGALFLGFLGTAGSTMGAASITLTVQARQLLSGIVQQQNNLLKAIEAQQHLLQLTVWGIKQLQARVLAVERYLKDQQLLGLWGCSGKLICTTTVPWNASWSNKSLEQIWENMTWMQWEKEIDNYTGIIYSLISESQLQQEKNEKELLELDKWASLWTWFDITNWLWYIKIFIMIVGGLIGLRIVFAVLSIVNKVRKGYSPLSFQTRLPTPRGPDRPEGIEEEGGERGRDTSIRLVDGFLALIWDDLRNLCLFSYHHLRDLILIVVRTVELLGRRGWELLKYWWNLLKYWSQELKKSAVSLFNAAAIAVAEGTDRVIEVVQRAGRGILHVPRRIRQGLERALQ
B3: HIV-1 Env, reservoir clone (protein)
chain: MRAKGIRKNYQDLLKGGILLLGILMICSAAGNLWVTVYYGVPVWKDATTTLFCASDAKGYSKEAHNVWATHACVPTDPDPREIVMGNVTENFNMWKNDMVDQMHEDIISLWDQSLKPCVKLTPLCVTLKCTNLNNTNSNTSNTNNNTSSENGTSNTNNNTSSENGSEEMKNCSFNVTTIKGKYQQEYAFLYKLDLVPIDNNDNTSYMLINCNTSVITQACPKISFEPIPIHYCAPAGFAILKCNNKTFNGTGPCTNVSSVQCTHGIRPVVSTQLLLNGSLAEEEVVIRSENFTDNAKTIIVQLKDPIQINCTRPNNNTRKSIHIAPGRAFYATGQIIGDIRQAYCNISKEQWNEALNQTVRKLREQFGNKTIFFNQSSGGDPEIVMHTFNCGGEFFYCNTTQLFNSTWDNTTNSTDSNNDTIKLPCRIKQVINRWQEVGKAMYAPPISGPIRCSSNITGLLLVRDGGNNNSSNSSETFRPGGGNMKDNWRSELYKYKVVKIEPLGVAPTKAKRRVVQRERRAVTLGAMFLGFLGTAGSTMGAASLTLTVQARQLLSGIVQQQSNLLRAIEVHQHMLQLTVWGIKQLQARVLAVERYLKDQQLLGIWGCSGKLICTTTVPWNASWSKKNLSEIWDNMTWIEWEREIQNYTEEIYSLIEKSQNQQAKNEQELLELDKWANLWNWFDITQWLWYIKIFIMIVGGLIGLRIVFTVLSIVNRVRQGYSPLSFQTRLPTQRGPDRPEGTEEEGGERDRDTSRPLVDGFLAIIWVDLRSLFLFSYHRLRDLLLIVTRIVETLGRRGWELLKYWWNLLQYWSQELKNSAISLLNATAITVAEGTDRVIELIQRAGRAIIHIPRRIRQGLESALL
B4: HIV-1 Env, reservoir clone (protein)
chain: MRVKGIRKNYQDLLKGGILLLGILMICSAAGNLWVTVYYGVPVWKDATTTLFCASDAKGYNKEAHNVWATHACVPTDPDPREIVMGNVTENFNMWKNDMVDQMHEDIISLWDQSLKPCVKLTPLCVTLKCTNLKNNTNSNISSKNGSEEMKNCSFNVTTIKGKYQQEYAVLYKLDLVPIDNNDNTSYMLINCNTSVITQACPKISFEPIPIHYCAPAGFAILKCNNKTFNGTGPCTNVSSVQCTHGIRPVVSTQLLLNGSLAEEEVVIRSENFTDNAKTIIVQLKDPIQINCTRPNNNTRRSIHIAPGKAFYATGQIIGDIRQAHCNISKEQWNEALNQTVRKLREQFGNKTIFFNQSSGGDPEIVMHTFNCGGEFFYCNTTQLFNSTWDNTTNSTDSNNGNITLPCRIRQVINRWQEVGKAMYAPPISGPISCSSNITGLLLIRDGGNNNSSNSNETFRPGGGNMKDNWRSELYKYKVVKIEPLGVAPTKAKRRVVQRERRAVTLGAMFLGFLGTAGSTMGAASLTLTVQARQLLSGIVQQQSNLLRAVEVHQHLLQLTVWGIKQLQARVLAVERYLKDQQLLGIWGCSGKLICTTTVPWNASWSKKNLSQIWDNMTWIEWEREIQNYTEEIYSLIEKSQNQQAKNEQELLELDKWANLWNWFDITNWLWYIKIFIMIVGGLIGLRIVFTVLSIVNRVRQGYSPLSFQTRLPTQRGPDRPEGTEEEGGERDRDTSRPLVDGFLAIIWVDLRSLFLFSYHRLRDLLLIVTRIVETLGRRGWELLKYWWNLLQYWSQELKNSAISLLNATAIAVAEGTDRVIELIQRAGRAIIHIPRRIRQGLESALL
B5: HIV-1 Env, reservoir clone (protein)
chain: MRAKGIRKNYQDLLKGGILLLGILMICSAAGNLWVTVYYGVPVWKDATTTLFCASDAKGYNKEAHNVWATHACVPTDPDPREIVMGNVTENFNMWKNDMVDQMHEDIISLWDQSLKPCVKLTPLCVTLKCTNYSNGSRSEEMKNCSFNVTTIKGKYQKEYAVLYKLDLVPIDNNDNTSYMLINCNTSVITQACPKISFEPIPIHYCAPAGFAILKCNNKTFNGTGPCTNVSSVQCTHGIRPAVSTQLLLNGSLAEEEVVIRSENFTDNAKTIIVQLKDPIQINCTRPNNNTRRSIHIAPGRAFYATGQIIGNIRQAHCNISKEQWNEALNQTVRKLREQFGNKTIFFNQSSGGDPEIVMHTFNCGGEFFYCNTTQLFNSTWDNTTNSTDSNNDTITLPCRIKQVINRWQEVGKAMYAPPISGPISCSSNITGLLLIRDGGNNNSSNSNETFRPGGGNMKDNWRSELYKYKVVKIEPLGVAPTKAKRRVVQRERRAVTLGAMFLGFLGTAGSTMGAASLTLTVQARQLLSGIVQQQSNLLRAIEMQQHLLQLTVWGIKQLQARVLAVERYLKDQQLLGIWGCSGKLICTTTVPWNASWSKKNLSEIWDNMTWIEWEREIQNYTEEIYSLIEKSQNQQAKNEQELLELDKWANLWNWFDITNWLWYIKIFIMIVGGLIGLRIVFTVLSIVNRVRQGYSPLSFQTRLPTQRGPDRPEGTEEEGGERDRDTSRPLVDGFLAIIWVDLRSLFLFSYHRLRDLLLIVTRIVETLGRRGWELLKYWWNLLQYWSQELKNSAISLLNATAIAVAEGTDRVIELIQRAGRAIIHIPRRIRQGLESALL
B6: HIV-1 Env, reservoir clone (protein)
chain: MRAKGIRKNCQDLLKGGILLLGILMICSAAGNLWVTVYYGVPVWKDATTTLFCASDAKGYSKEAHNVWATHACVPTDPDPREVVMGNVTENFNMWKNDMVDQMHEDIISLWDQSLKPCVKLTPLCVTLNCTNLNLNVTNSNTSNGNWSEEMKNCSFNVTTIKGKYQTEYAVLYKLDLVPIDKNDNTSYMLINCNTSVITQACPKISFEPIPIHYCAPAGFAILKCNNKTFNGTGPCTNVSSVQCTHGIRPVVSTQLLLNGSLAEEEVVIRSENFTDNAKTIIVQLKDPIQINCTRPSNNTRKSIHIGPGRAFYATGQIIGDIRQAYCNISKEQWKEALNQTVRKLKEQFGNKTMIFNQSSGGDPEIVMHTFNCGGEFFYCNTAQLFNSTWYDTTNSTDSNNDTSKPIKLPCRIKQVINRWQEVGKAMYAPPIRGSIRCSSNITGLLLVRDGGNNNSSNSSETFRPGGGNMKDNWRSELYKYKVVKIEPLGVAPTKAKRRVVQRERRAVTLGAMFLGFLGTAGSTMGAASLTLTVQARQLLSGIVQQQSNLLRAIEVHQHMLQLTVWGIKQLQARVLAVERYLKDQQLLGIWGCSGKLICTTTVPWNTSWSKKNLSEIWDNMTWIEWEREIQNYTEEIYSLIEKSQNQQAKNEQELLELDKWANLWNWFDITNWLWYIKIFIMIVGGLIGLRIVFTVLSIVNRVRQGYSPLSFQTRLPTQRGPDRPGGTEEEGGERDRDTSRPLVDGFLAIIWVDLRSLFLFSYHRLRDLLLIVTRIVETLGRRGWELLKYWWNLLQYWSQELKNSAISLLNATAIAVAEGTDRVIELIQRAGRAIIHIPRRIRQGLESALL

Experiments:
antibody 10-1074 [1] = assay: neutralization IC50; higher = virus less sensitive to the antibody
Procedure: (§1)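 Pseudovirus bearing the Env chain mixed with antibody, from 50 µg/ml in fivefold dilutions, on TZM-bl reporter cells, in duplicate.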

antibody 3BNC117 [2] = assay: as above
Procedure: as §1

antibody 10-1074 [3] = assay: neutralization IC80; higher = virus less sensitive to the antibody
Procedure: as §1

antibody 3BNC117 [4] = assay: as above
Procedure: as §1

Binder	neutralization IC50 (antibody 10-1074 [1])	neutralization IC50 (antibody 3BNC117 [2])	neutralization IC80 (antibody 10-1074 [3])	neutralization IC80 (antibody 3BNC117 [4])
B1	0.243 µg/mL	0.427 µg/mL	0.586 µg/mL	0.847 µg/mL
B2	0.001 µg/mL	0.01 µg/mL	0.003 µg/mL	1.08 µg/mL
B3	1.58 µg/mL	0.127 µg/mL	13.4 µg/mL	0.33 µg/mL
B4	0.035 µg/mL	0.305 µg/mL	0.191 µg/mL	0.974 µg/mL
B5	< 0.001 µg/mL	0.074 µg/mL	< 0.001 µg/mL	0.165 µg/mL
B6	0.561 µg/mL	0.225 µg/mL	2.77 µg/mL	0.601 µg/mL

Reference: the supplement of paper PMC12637763
